Reference: ChEMBL document CHEMBL1152450 (J Med Chem, 2009)

Assay: Inhibition of SARS coronavirus PLpro residues 1541-1855 expressed in Escherichia coli
Design: species or system Severe acute respiratory syndrome-related coronavirus

Compared with `C[C@@H](NC(=O)c1ccc(N)cc1)c1cccc2ccccc12`, `COc1cccc(C(=O)N[C@H](C)c2ccc3ccccc3c2)c1` is 1.8-fold lower in IC50: 24.8 µM for the first, 13.5 µM for the second.

For `COc1ccccc1C(=O)N[C@H](C)c1ccc2ccccc2c1`, the IC50 was 90 µM.
